Measured values from several laboratories, pooled; numbers as filed in NIAID ChemDB.

Shared fields: tests on isolated targets; target: Cathepsin D

ICn: concentration for n% inhibition. Blank or dashed fields: not listed here. Neighbouring rows are from separate reports.

SMILES | conditions | read-out | read by | value
CCCCNC(=O)[C@H](C)C[C@H](O)[C@H](CC1CCCCC1)NC(=O)[C@@H](NC(=O)[C@@H](NC(=O)OC(C)(C)C)[C@@H](C)O)C(C)C |  | IC50 |  | 1.4 µM
CC(C)[C@H](NC(=O)N(C)Cc1ccccn1)C(=O)N[C@@H](Cc1ccccc1)C(=O)C(F)(F)[C@H](Cc1ccccc1)NC(=O)[C@@H](NC(=O)N(C)Cc1ccccn1)C(C)C |  | IC50 |  | 77 µM
CC(C)(C)NC(=O)[C@H]1N(C(=O)[C@@H](O)[C@H](Cc2ccccc2)NC(=O)[C@H](CC(N)=O)NC(=O)COc2cccc3cnccc23)CSC1(C)C |  | IC50 | HPLC | 100 µM
CC(C)[C@H](NC(=O)c1ccc2ccccc2n1)C(=O)N[C@@H](Cc1ccccc1)[C@H](O)CN1CC[C@@H](OCc2ccncc2)C[C@H]1C(=O)NC(C)(C)C |  | IC50 |  | 100 µM
CC(C)(C)OC(=O)N[C@@H](Cc1ccccc1)[C@H](O)CNC[C@@H](O)[C@H](Cc1ccc(OCC(=O)N2CCOCC2)cc1)NC(=O)OC(C)(C)C |  | IC50 | absorbance | >31 µM
CC(C)C[C@H](NC(=O)[C@H](Cc1ccccc1)C[C@@H](O)[C@H](Cc1ccccc1)NC(=O)OC(C)(C)C)C(=O)N[C@@H](Cc1ccccc1)C(N)=O |  | IC50 |  | 1.8 µM
CC(C)C[C@H](NC(=O)[C@@H](NC(=O)N(C)Cc1ccccn1)C(C)C)C(=O)C(F)(F)[C@H](CC(C)C)NC(=O)[C@@H](NC(=O)N(C)Cc1ccccn1)C(C)C |  | IC50 |  | 98 µM
CC(C)CN(C[C@@H](O)[C@H](Cc1ccccc1)NC(=O)[C@H](CC(N)=O)NC(=O)c1ccc2ccccc2n1)C(=O)NC(C)(C)C |  | IC50 |  | >10 µM
CSC[C@H](NC(=O)COc1cccc2cnccc12)C(=O)N[C@@H](Cc1ccccc1)[C@H](O)C(=O)N1CSC(C)(C)[C@H]1C(=O)NC(C)(C)C |  | IC50 |  | 23 µM
CC(C)(C)NC(=O)[C@@H]1CCCN1C(=O)[C@@H](O)[C@H](Cc1ccccc1)NC(=O)[C@H](CC(N)=O)NC(=O)OCc1ccccc1 |  | IC50 | HPLC | 100 µM
COC(=O)N[C@@H](Cc1c[nH]c2ccccc12)C(=O)NCCCC[C@@H](CO)N(CC(C)C)S(=O)(=O)c1ccc(N)cc1 |  | IC50 |  | 30 µM
CSC[C@H](NC(=O)COc1cccc2cnccc12)C(=O)N[C@@H](Cc1ccccc1)[C@H](O)C(=O)N1CSC(C)(C)[C@H]1C(=O)NC(C)(C)C |  | IC50 |  | 23 µM
CC(C)CN(C[C@@H](O)[C@H](Cc1ccccc1)NC(=O)[C@H](CC(N)=O)NC(=O)c1ccc2ccccc2n1)C(=O)NC(C)(C)C |  | IC50 |  | >10 µM
CC(C)[C@H](NC(=O)OCc1ccccc1)C(=O)N[C@@H](Cc1ccccc1)C(=O)C(F)(F)[C@H](Cc1ccccc1)NC(=O)[C@@H](NC(=O)OCc1ccccc1)C(C)C |  | IC50 |  | >100 µM
CC(C)(C)NC(=O)[C@@H]1CCCN1C(=O)[C@@H](O)[C@H](Cc1ccccc1)NC(=O)[C@H](CC(N)=O)NC(=O)COc1cccc2ccccc12 |  | IC50 | HPLC | 18 µM
CC(C)[C@H](NC(=O)[C@@H](NC(=O)C1CCCCC1P(=O)(O)C(Cc1ccccc1)NC(=O)OCc1ccccc1)C(C)C)C(N)=O | pH 3.5 | Ki |  | 0.3 µM
CCCCNC(=O)[C@H](C)C[C@H](O)[C@H](CC1CCCCC1)NC(=O)[C@@H](NC(=O)[C@H](CCCN)NC(=O)OC(C)(C)C)C(C)C |  | IC50 |  | 21 µM
CC(C)(C)NC(=O)[C@H]1N(C(=O)[C@@H](O)[C@H](Cc2ccccc2)NC(=O)[C@H](CC(N)=O)NC(=O)COc2cccc(-c3ccccc3)c2)CSC1(C)C |  | IC50 | HPLC | 2.9 µM
CCNC(=O)[C@@H](NC(=O)Cc1ccccc1)[C@@H]1N[C@@H](C(=O)NCCNC(=O)[C@@H]2N[C@@H]([C@H](NC(=O)Cc3ccccc3)C(=O)NCC)SC2(C)C)C(C)(C)S1 |  | IC50 |  | >100 µM
CC(C)[C@H](NC(=O)[C@@H](NC(=O)C(Cc1ccccc1)CP(=O)(O)C(Cc1ccccc1)NC(=O)[C@@H](NC(=O)[C@@H](NC(=O)OC(C)(C)C)C(C)C)C(C)C)C(C)C)C(N)=O | pH 3.5 | Ki |  | 0.009 µM
CCC(Cc1ccccc1)c1cc(O)c(C(CC)c2ccccc2)c(=O)o1 |  | IC50 |  | ~10 µM
COCCNC(=O)[C@@H](NC(=O)[C@H](Cc1ccc(OC)c(OC)c1OC)C[C@H](O)[C@H](Cc1ccccc1)NC(=O)OC(C)(C)C)C(C)C |  | IC50 |  | 0.1 µM

3 of the rows above, restated:

SMILES	conditions	read-out	read by	value
CCCCNC(=O)[C@H](C)C[C@H](O)[C@H](CC1CCCCC1)NC(=O)[C@@H](NC(=O)[C@H](CCCN)NC(=O)OC(C)(C)C)C(C)C		IC50		21 µM
CC(C)(C)OC(=O)N[C@@H](Cc1ccccc1)[C@H](O)CNC[C@@H](O)[C@H](Cc1ccc(OCC(=O)N2CCOCC2)cc1)NC(=O)OC(C)(C)C		IC50	absorbance	>31 µM
COC(=O)N[C@@H](Cc1c[nH]c2ccccc12)C(=O)NCCCC[C@@H](CO)N(CC(C)C)S(=O)(=O)c1ccc(N)cc1		IC50		30 µM